Results taken from patent publication US10799494B2, “Combination of respiratory electron transport chain inhibitors with a cytochrome bd inhibitor” (priority 2015, dated 2020).
pIC50: −log10 of the molar value.

Amino acid sequences for entries named in this document (tags omitted). Residues count along the entry.
UniProt P95160, whole entry: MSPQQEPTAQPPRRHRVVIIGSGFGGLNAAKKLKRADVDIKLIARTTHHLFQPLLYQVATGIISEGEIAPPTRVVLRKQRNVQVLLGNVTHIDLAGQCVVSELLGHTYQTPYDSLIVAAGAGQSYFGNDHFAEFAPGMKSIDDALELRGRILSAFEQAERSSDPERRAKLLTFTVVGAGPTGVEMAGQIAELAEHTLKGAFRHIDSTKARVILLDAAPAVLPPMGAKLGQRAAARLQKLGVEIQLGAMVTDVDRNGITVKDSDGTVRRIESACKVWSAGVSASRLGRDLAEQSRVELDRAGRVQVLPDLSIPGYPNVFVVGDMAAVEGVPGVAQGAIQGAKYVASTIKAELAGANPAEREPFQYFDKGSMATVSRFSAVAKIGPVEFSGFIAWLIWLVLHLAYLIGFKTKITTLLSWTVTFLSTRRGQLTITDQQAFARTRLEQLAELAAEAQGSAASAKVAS
UniProt L7N662, 1-485: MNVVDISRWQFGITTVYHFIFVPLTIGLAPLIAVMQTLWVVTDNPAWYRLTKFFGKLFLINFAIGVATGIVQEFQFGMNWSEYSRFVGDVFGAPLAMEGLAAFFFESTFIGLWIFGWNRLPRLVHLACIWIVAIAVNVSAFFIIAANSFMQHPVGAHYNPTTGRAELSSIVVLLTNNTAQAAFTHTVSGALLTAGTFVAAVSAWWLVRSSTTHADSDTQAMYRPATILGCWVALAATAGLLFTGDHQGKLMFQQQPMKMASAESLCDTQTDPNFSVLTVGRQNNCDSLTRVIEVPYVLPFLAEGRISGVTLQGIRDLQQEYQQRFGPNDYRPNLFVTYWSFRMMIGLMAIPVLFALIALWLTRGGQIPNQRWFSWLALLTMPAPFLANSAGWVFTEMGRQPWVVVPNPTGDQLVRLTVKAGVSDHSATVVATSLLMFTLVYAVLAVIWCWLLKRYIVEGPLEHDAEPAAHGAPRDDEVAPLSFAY

How the values were obtained:
[1] = target: ndh (Mycobacterium tuberculosis (strain ATCC 25618 / H37Rv), UniProt P95160); experiment: In vitro ndh enzyme inhibition; assay type: biochemical; settings: read-out: In vitro ndh enzyme inhibition (IC50)
[2] = target: M. tuberculosis cytochrome bd-I (Mycobacterium tuberculosis, UniProt L7N662); settings: read-out: In vitro Cyt bd enzyme inhibition (IC50); Table 5

Cc1c(-c2ccc(N3CCC(F)(F)C3)cc2)[nH]c2cc(F)cc(F)c2c1=O [MTC420]
pIC50 [1]: < 6.00 | pIC50 [2]: 5.25
